Numbering of substitutions follows the chain as printed.
B1: NBX0548 (VHH)
VHH: QVQLQQSGGGLVQSGGSLRLSCAASETSLNFDDMRWYRQTPGKRREWVAIINTFPAGTTASYADSVKGRFTISKVNGENTVHLQMNRLKPEDTAVYYCNAGDYWGQGTQVTVSS
B2: NBX0549 (VHH)
VHH: QVQLQESGGGLVQAGGSLRLSCTASGSDSSINYMGWYRQAPGKQRVLLAAISRDGRSNYADSVRGRFTISRDNAKNTVDLQMNSLKPEDTAVYYCYVDPLGRVPRWGQGTQVTVSS
B3: NBX0513 (VHH)
VHH: QVQLQESGGGLVQAGGSLRLSCAASGSGRRVGYMAWYRQTPGKQRELVATISRAGATNYADSVKDRFTISRDNAKNTVYLQMNSLKPDDTAVYYCFASLFDAGTYWGQGTQVTVSS
B4: NBX0507 (VHH)
VHH: B3 VHH with L99I
B5: NBX0553 (VHH)
VHH: B3 VHH with A14P, R29W, N58R, A60E, L99I, F100I, Q111P
B6: NBX0503 (VHH)
VHH: B3 VHH with L47S, N58K, N76D, F100I
B7: NBX0506 (VHH)
VHH: B3 VHH with L20V, L99V
B8: NBX0512 (VHH)
VHH: B3 VHH with E6Q, L99V
B9: NBX0318 (VHH)
VHH: QVQLQESGGGLVQAGGSLRLSCVVSGSIMSIRVMGWYRQAPGKQRELVATMSRGNTINYADSVRGRFTISRDNAKSTVYLQMNSLKPEDTDVYYCAALLDSYYWGQGTQVTVSS
B10: NBX0366 (VHH)
VHH: B9 VHH with N55G, S76N, N83T, D91A, A96T
B11: NBX0365 (VHH)
VHH: B9 VHH with V23A, V24A, M29F, N55G, D91A, A96T
B12: NBX0370 (VHH)
VHH: B9 VHH with N55G, D91A
B13: NBX0372 (VHH)
VHH: B9 VHH with V23A, V24A, G26A, M29I, N55G, D91A
B14: NBX0364 (VHH)
VHH: B9 VHH with N55G, D91A, A96T
B15: NBX0376 (VHH)
VHH: B9 VHH with V23A, V24A, G26A, M29I, N55G, N83T, D91A
B16: NBX0362 (VHH)
VHH: B9 VHH with Y79F, Q81E, D91A
B17: NBX0371 (VHH)
VHH: B9 VHH with V23A, V24A, G26A, M29I, N55G, D91A, A96T
B18: NBX0373 (VHH)
VHH: B9 VHH with V23A, V24A, G26A, Y79F, Q81E, D91A
B19: NBX0375 (VHH)
VHH: B9 VHH with N55G
B20: NBX0319 (VHH)
VHH: B9 VHH with V23A, V24A, G26A, M29I, N55G, Y79F, Q81E, D91A, A96T
B21: NBX0303 (VHH)
VHH: QVQLQESGGGLVQAGGSLRLSCTASGRTLSYWTMGWFRQAPGKEREFVAAINWSSGTRYSDSVRDRFTIDGDTDKTTVYLEMNKMNLDDSAVYYCAAHRASFGLGYQTHEYDFWGQGTQVTVSS
B22: NBX0324 (VHH)
VHH: B21 VHH with S21T, R64K, T73S, E81Q, K84S, M85L
B23: NBX0307 (VHH)
VHH: B21 VHH with A40V, D61E
B24: NBX0308 (VHH)
VHH: B21 VHH with E6Q, A40V, D61E
B25: NBX0323 (VHH)
VHH: B21 VHH with E6Q
B26: NBX0551 (VHH)
VHH: QVQLQESGGGLVQAGGSLRLSCAASGSIFSRNIILWHRQAPGKQRELVGGINTGGRTNYESSVKGRFTISRDNAKNTVYLQMDRLKPEDTAVYYCNAPSLGYWGQGTQVTVSS
B27: NBX0309 (VHH)
VHH: QVQLQQSGGGLVQAGGSLRLSCAASGSTFNNYMIGWFRQAPGKEREFVATISGSGAGTFYADSVRGRFTISRDNAKNTVYLQMNSLKLEDTAGYYCARRMSRSGIFGLRDYDSWGQGTQVTVSS
B28: NBX0301 (VHH)
VHH: QVQLQESGGGVVQAGGSLSLSCSPYQRASSLFAMGWFRQSPGKEREFVAGISWNGDKSQYADSVKDRFTISRDNDKNTVFLQMNSLKPEDTAVYYCAAHRASFELGFATHDYDFWGQGTQVTVSS
B29: NBX0310 (VHH)
VHH: B28 VHH with E6Q
B30: NBX0550 (VHH)
VHH: QVQLQESGGGAVQAGGSLTLSCVASGTVNLMAWYRQTPGRQRELVAVIKGTGTTRYADSVKDRFTISRDNAKNTMYLQMNDLKPDDTALYYCFASVLGAGTYWGQGTQVTVSS
B31: NBX0552 (VHH)
VHH: QVQLQQSGGGLVQAGGSLRLSCVASGSGSINYMAWHRQTPGRQRELVAVINRTGAARYADSVKDRFTISRDNAENTMYLQMNDLKPDDTAVYYCFASALGAGVYWGQGTQVTVSS
B32: NBX0311 (VHH)
VHH: QVQLQESGGGLVQAGGSLRLSCAASGRTFSNADMAWFRQSPGKERESVAAISWSGGRTYYADSVKGRATISRDIAKDTVYLQMNSLKPEDTAVYYCAAGGYSNLPTSYGYWGQGTQVTVSS
B33: NBX0322 (VHH)
VHH: QVQLQESGGGLVQAGGSLRLSCQGSGRTFSTYAMGWYRQAPGKEREFVAAITRGGNTIYADSVKGRFTISRVSDKNTVYLQMSSLKPEDTAVYYCAADRIIVPRDPMDYWGKGTLVTVSS

Biological target: T1, NetB (necrotic enteritis toxin B) (Clostridium perfringens)
T1 chain: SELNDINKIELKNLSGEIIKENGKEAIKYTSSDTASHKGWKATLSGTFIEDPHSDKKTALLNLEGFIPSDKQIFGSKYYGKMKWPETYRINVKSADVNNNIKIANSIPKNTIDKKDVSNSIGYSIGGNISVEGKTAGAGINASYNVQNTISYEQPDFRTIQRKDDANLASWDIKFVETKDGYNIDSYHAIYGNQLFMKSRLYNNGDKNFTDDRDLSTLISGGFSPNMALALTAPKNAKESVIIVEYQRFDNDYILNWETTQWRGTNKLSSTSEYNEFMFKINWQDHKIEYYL
Experiment: cell-based or functional assay

Binder | IC50 < 50 nM, NetB cytotoxicity on LMH cells (LDH) [nM] | IC50 < 1 µM, NetB cytotoxicity on LMH cells (LDH) [µM]
B1 | < 50 | < 1
B2 | < 50 | < 1
B3 | ≥ 50 | < 1
B4 | < 50 | < 1
B5 | < 50 | < 1
B6 | < 50 | < 1
B7 | < 50 | < 1
B8 | ≥ 50 | < 1
B9 | < 50 | < 1
B10 | < 50 | < 1
B11 | < 50 | < 1
B12 | ≥ 50 | < 1
B13 | ≥ 50 | < 1
B14 | < 50 | < 1
B15 | ≥ 50 | < 1
B16 | ≥ 50 | < 1
B17 | < 50 | < 1

Binder | IC50 < 50 nM, NetB cytotoxicity on LMH cells (LDH) [nM] | IC50 < 1 µM, NetB cytotoxicity on LMH cells (LDH) [µM]
B18 | ≥ 50 | < 1
B19 | < 50 | < 1
B20 | < 50 | < 1
B21 | < 50 | < 1
B22 | < 50 | < 1
B23 | < 50 | < 1
B24 | ≥ 50 | < 1
B25 | ≥ 50 | < 1
B26 | < 50 | < 1
B27 | < 50 | < 1
B28 | ≥ 50 | 
B29 | < 50 | < 1
B30 | < 50 | < 1
B31 | < 50 | < 1
B32 | ≥ 50 | < 1
B33 | ≥ 50 | < 1

Source: patent US20210269512A1 (NOVOBIND LIVESTOCK THERAPEUTICS, published 2021)
